This is an account of results in patent US7687482B2, “Bisphosphonate compounds and methods” (The Board of Trustees of the University of Illinois, priority 2006, dated 2010).

Protein sequences, listed by entry. Tags and fused reporters are not part of them. Residues count along the entry.
UniProt Q57WF1, 1-367: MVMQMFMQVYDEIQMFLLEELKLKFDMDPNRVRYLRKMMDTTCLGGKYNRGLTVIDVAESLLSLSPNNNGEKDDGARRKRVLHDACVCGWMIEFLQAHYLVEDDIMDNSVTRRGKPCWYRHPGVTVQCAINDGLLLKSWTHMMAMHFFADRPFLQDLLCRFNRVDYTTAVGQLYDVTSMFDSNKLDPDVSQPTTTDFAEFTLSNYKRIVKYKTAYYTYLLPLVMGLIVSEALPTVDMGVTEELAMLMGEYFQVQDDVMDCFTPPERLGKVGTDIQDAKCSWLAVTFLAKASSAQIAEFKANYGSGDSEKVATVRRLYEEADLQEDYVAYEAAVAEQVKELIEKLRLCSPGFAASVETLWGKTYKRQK

The structures appear in SMILES notation.

Broadly, the IC50 is the concentration that inhibits the measured activity by half.

For the assay, the target named is T. brucei FPPS (Trypanosoma brucei, UniProt Q57WF1). The following applies: read-out: T. brucei FPPS IC50.
In the case of `O=P([O-])(O)C(O)(C[S+]1CCCC1)P(=O)(O)O` (stereo not drawn), the 50% inhibitory concentration (IC50) stood at 250 nM.

For the molecule `O=P([O-])(O)C(O)(CC[S+]1CCCC1)P(=O)(O)O` (stereo not drawn), the IC50 worked out at 780 nM.

For the molecule `C[S+](C)CCC(O)(P(=O)([O-])O)P(=O)(O)O` (stereo not drawn), the IC50 is 1400 nM.

As for `C[S+](CCCOc1ccccc1)CC(O)(P(=O)([O-])O)P(=O)(O)O` (stereo not drawn), the IC50 worked out at 240 nM.

Take `CCCC[S+](C)CC(O)(P(=O)([O-])O)P(=O)(O)O` (stereo not drawn): the IC50 came out at 1100 nM.

Consider `O=P([O-])(O)C(O)(C[S+]1CCCCC1)P(=O)(O)O` (stereo not drawn), for which the IC50 amounted to 590 nM.
